Anti-infective test results gathered from many reports (values: NIAID ChemDB through PubChem).

Common to all: growth or infection tests; species: Rhinovirus; read-out: EC50

ECn: concentration that inhibits the pathogen or its effect by n%.

COc1ccc(Cn2cnc3c(N(C)C)nc(C(F)(F)F)nc32)cc1C ; strain: Serotype 21 ; cells: M-HELA ; method: plaque count ; value: >8 µM
Fc1cccc(Cn2cnc3c(Nc4cccc(F)c4)nc(C(F)(F)F)nc32)c1 ; strain: Serotype 25 ; cells: M-HELA ; method: plaque count ; value: 1.2 µM
Cc1c(-c2ccccc2)n(-c2ccc(F)cc2)c2ccc(C(C)C)cc2c1=O ; strain: TYPE 2 ; cells: HELA-OHIO ; method: cytopathic effect ; value: 0.038 µg/mL
CN(C)c1nc(C(F)(F)F)nc2c1ncn2Cc1ccc(C(F)(F)F)cc1 ; strain: Serotype 8 ; cells: M-HELA ; method: plaque count ; value: >8 µM
CSc1nsc(-c2ccccc2)c1C#N ; strain: Serotype 9 (group B) ; cells: HELA-OHIO ; method: cytopathic effect ; value: >80 µM
CC(C)Oc1ccc(Cn2cnc3c(N(C)C)nc(C(F)(F)F)nc32)cc1 ; strain: Serotype 13 ; cells: M-HELA ; method: plaque count ; value: >8 µM
Cc1ccc(Cn2cnc3c(Nc4cccc(F)c4)nc(C(F)(F)F)nc32)cc1 ; strain: Serotype 5 ; cells: M-HELA ; method: plaque count ; value: 190 µM
Cc1c(-c2ccccc2)n(-c2cccc(F)c2)c2ccc(C(C)C)cc2c1=O ; strain: 16/11757 ; cells: HELA-OHIO ; method: cytopathic effect ; value: 0.03 µg/mL
CSc1nsc(-c2ccc(OCCCCOc3ccc(C#N)cc3)cc2)c1C#N ; strain: Serotype 42 (group A) ; cells: HELA-OHIO ; method: cytopathic effect ; value: >2 µM
Cc1cc(Cl)ccc1Cn1cnc2c(N(C)C)nc(C(F)(F)F)nc21 ; strain: Serotype 1B ; cells: M-HELA ; method: plaque count ; value: 0.13 µM
CCO/N=C/c1ccc(OCCC2CCN(c3ccc(Cl)nn3)CC2)cc1 ; strain: A2#58 (ICAM-1 receptor group 50) ; cells: KB ; method: neutral red ; value: 0.023 µM
CSc1nsc(-c2ccc(OCc3ccccc3)cc2)c1C#N ; strain: Serotype 42 (group A) ; cells: HELA-OHIO ; method: cytopathic effect ; value: 7 µM
Cc1cc(CCCCCOc2c(Cl)cc(C3=NCCO3)cc2Cl)on1 ; strain: TYPE A1 ; cells: HeLa ; method: plaque count ; value: 0.98 µg/mL
CSc1nsc(-c2ccc(OCCCCOc3ccc([N+](=O)[O-])cc3)cc2)c1C#N ; strain: Serotype 29 (group B) ; cells: HELA-OHIO ; method: cytopathic effect ; value: >0.5 µM
COc1ccc(-c2snc(SC)c2C#N)cc1 ; strain: Serotype 42 (group A) ; cells: HELA-OHIO ; method: cytopathic effect ; value: >12 µM
CSc1ccc(Cn2cnc3c(N(C)C)nc(C(F)(F)F)nc32)cc1 ; strain: Serotype 13 ; cells: M-HELA ; method: plaque count ; value: >8 µM
CSc1nsc(-c2ccc(OCCCCOc3ccccc3)cc2)c1C#N ; strain: Serotype 42 (group A) ; cells: HELA-OHIO ; method: cytopathic effect ; value: >20 µM
CSc1nsc(-c2ccc(OCc3ccccc3)cc2)c1C#N ; strain: Serotype 63 (group B) ; cells: HELA-OHIO ; method: cytopathic effect ; value: 10 µM
CSc1nsc(-c2ccc(OCCCOc3ccc([N+](=O)[O-])cc3)cc2)c1C#N ; strain: Serotype 42 (group A) ; cells: HELA-OHIO ; method: cytopathic effect ; value: >1 µM
CN(C)c1ccc(Cn2cnc3c(N(C)C)nc(C(F)(F)F)nc32)cc1 ; strain: Serotype 19 ; cells: M-HELA ; method: plaque count ; value: >8 µM
CCOC(=O)c1ccc(OCCOc2ccc(-c3snc(SC)c3C#N)cc2)cc1 ; strain: Serotype 14 (group A) ; cells: HELA-OHIO ; method: cytopathic effect ; value: >2 µM
CN(C)c1nc(C(F)(F)F)nc2c1ncn2Cc1ccccc1 ; strain: Serotype 31 ; cells: M-HELA ; method: plaque count ; value: >8 µM
CSc1nsc(-c2ccc(OCCCOc3ccc(C#N)cc3)cc2)c1C#N ; strain: Serotype 14 (group A) ; cells: HELA-OHIO ; method: cytopathic effect ; value: >2 µM
CCOC(=O)/C=C/[C@H](C[C@@H]1CCNC1=O)NC(=O)[C@@H](CC(=O)[C@@H](NC(=O)c1cc(C)on1)C(C)C)Cc1ccc(F)cc1 ; strain: Isolate 27 ; cells: OHIO HELA-I ; method: cytopathic effect / visual reading ; value: 0.01 µg/mL
CCn1c2c(c(=O)c3cc(C(C)C)ccc31)Cc1ccccc1-2 ; strain: 31/41F ; cells: HELA-OHIO ; method: cytopathic effect ; value: 0.29 µg/mL

Repeating the final 2 entries:

compound,strain,cells,method,value
CCOC(=O)/C=C/[C@H](C[C@@H]1CCNC1=O)NC(=O)[C@@H](CC(=O)[C@@H](NC(=O)c1cc(C)on1)C(C)C)Cc1ccc(F)cc1,Isolate 27,OHIO HELA-I,cytopathic effect / visual reading,0.01 µg/mL
CCn1c2c(c(=O)c3cc(C(C)C)ccc31)Cc1ccccc1-2,31/41F,HELA-OHIO,cytopathic effect,0.29 µg/mL

Lines come from different laboratories, so protocols vary.